Share of PSTVd stem 3 variants by leaf site

Reference: Wu et al. 2024, doi:10.1371/journal.ppat.1012142.

Region: stem 3 of PSTVd (intermediate strain), upper and lower strand joined, each 5' to 3', the first 8 letters being the upper strand. Wild type: GUGGUUCCGGAACCGC. Varied positions (N): GUGGUUCCGNANNCNN.

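A pool of all variants was put on leaves of three Nicotiana benthamiana plants. Progeny were sequenced from the inoculated region (day 5), the margin of the inoculated leaf (day 10) and systemic leaves (day 12).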

Numbers give reads per thousand; 0 = not seen among the reads, higher = more abundant.
Each site shows the three plants.
"Pool" is the share in the plasmid pool used as inoculum, on the same scale.
The inoculated region was read from the minus strand, the other sites from the plus strand.
With 27,691-54,225 reads a sample, very low values are single reads.
Wild type was 17.3 per thousand in the pool and the most common sequence in every sample (inoculated region 330, 345, 235; leaf margin 794, 766, 816; systemic leaves 830, 792, 869).
Sequences that differ at fixed positions probably stem from PCR or sequencing errors, and defective variants can be carried along by functional ones.

* GUGGGUCCGUAGGCGU (pool 0.0154) -> inoculated region 0 / 0 / 0.0270; leaf margin 0 / 0 / 0; systemic leaves 0 / 0 / 0
* GUGGUUCCGGAUGCAU (pool 0.739) -> inoculated region 0.720 / 0.755 / 0.919; leaf margin 0.0283 / 0.0636 / 0.217; systemic leaves 0 / 0.0184 / 0
* GUGGUUCCGAACAGGA (pool 1.22) -> inoculated region 0.293 / 0.367 / 0.243; leaf margin 0.0283 / 0 / 0; systemic leaves 0.112 / 0.0369 / 0
* GUGGUUCCGAACACUA (pool 0.754) -> inoculated region 0.187 / 0.388 / 0.135; leaf margin 0 / 0 / 0.0361; systemic leaves 0 / 0 / 0
* GUGGUUCCGUAAACUC (pool 0.893) -> inoculated region 0.373 / 0.388 / 0.270; leaf margin 0.0283 / 0 / 0; systemic leaves 0 / 0 / 0
* GUGGUUCCGAACGCAU (pool 0.616) -> inoculated region 0.773 / 0.755 / 0.919; leaf margin 0.0283 / 0 / 0; systemic leaves 0 / 0 / 0
* GUGGUUCCGCACCCAU (pool 0.769) -> inoculated region 0.853 / 0.647 / 0.919; leaf margin 0 / 0 / 0.181; systemic leaves 0 / 0 / 0
* GUGGUUCCGUACCCCG (pool 1.23) -> inoculated region 0.693 / 0.539 / 0.432; leaf margin 0.0283 / 0 / 0; systemic leaves 0 / 0 / 0
* GUGGGUCCGUACGCCC (pool 0.0154) -> inoculated region 0 / 0 / 0; leaf margin 0 / 0 / 0; systemic leaves 0 / 0 / 0
* GUGGUUCCGCAAACAC (pool 0.831) -> inoculated region 0.347 / 0.431 / 0.378; leaf margin 0 / 0.0636 / 0.0361; systemic leaves 0 / 0 / 0
* GUGGUUCCGUUAUCCA (pool 0.0154) -> inoculated region 0 / 0 / 0; leaf margin 0 / 0 / 0; systemic leaves 0 / 0 / 0
* GUGGUUCCGUAACCAU (pool 0.800) -> inoculated region 1.01 / 0.712 / 1.11; leaf margin 0 / 0 / 0.433; systemic leaves 0 / 0 / 0
* GUGGUUCCGCAAUCUU (pool 0.723) -> inoculated region 0.746 / 0.776 / 0.757; leaf margin 0 / 0.0318 / 0.325; systemic leaves 0 / 0 / 0
* GUGGUUCCGCAAACUG (pool 0.816) -> inoculated region 0.373 / 0.237 / 0.243; leaf margin 0 / 0 / 0; systemic leaves 0 / 0 / 0
* GUGGUUCCGUAAUCUA (pool 1.34) -> inoculated region 0.400 / 0.453 / 0.189; leaf margin 0 / 0 / 0; systemic leaves 0.149 / 0 / 0
* GUGGUUCCGGAGGCAU (pool 2.49) -> inoculated region 0.960 / 1.32 / 1.51; leaf margin 1.64 / 1.30 / 0.181; systemic leaves 1.47 / 1.25 / 0.730
* GUGGUUCCGAACGCUC (pool 0.908) -> inoculated region 0.347 / 0.431 / 0.243; leaf margin 0 / 0 / 0; systemic leaves 0 / 0 / 0
* GUGGUUCCGGAUACAC (pool 0.769) -> inoculated region 0.560 / 0.323 / 0.243; leaf margin 0 / 0 / 0.0361; systemic leaves 0 / 0 / 0
* GUGGUUCCGACAACAC (pool 0.0154) -> inoculated region 0.293 / 0.410 / 0.649; leaf margin 0.368 / 0 / 0.325; systemic leaves 0 / 0 / 0
* AUGGUUCCGCAAGCGA (pool 0.0154) -> inoculated region 0 / 0 / 0; leaf margin 0 / 0 / 0; systemic leaves 0 / 0 / 0
* GUGGUUCCGUACUCUG (pool 0.769) -> inoculated region 0.347 / 0.431 / 0.405; leaf margin 0 / 0.0318 / 0.0361; systemic leaves 0 / 0 / 0
* GUGGUUCCGCAAGCCU (pool 0.862) -> inoculated region 0.453 / 0.367 / 0.216; leaf margin 0 / 0.0318 / 0; systemic leaves 0 / 0 / 0
* GUGGUUCCGAAGCCUA (pool 0.739) -> inoculated region 0.720 / 0.604 / 0.757; leaf margin 0.0283 / 0.0318 / 0.722; systemic leaves 0 / 0 / 0
* GUGGUUCCGAAUUCAU (pool 1.39) -> inoculated region 1.09 / 1.19 / 0.919; leaf margin 1.56 / 0.954 / 0.433; systemic leaves 1.45 / 1.59 / 0.632

Extract of 2 entries:

sequence	pool	inoculated region	leaf margin	systemic leaves
GUGGUUCCGCAAGCCU	0.862	0.453 / 0.367 / 0.216	0 / 0.0318 / 0	0 / 0 / 0
GUGGGUCCGUACGCCC	0.0154	0 / 0 / 0	0 / 0 / 0	0 / 0 / 0